The results in this text go back to article PMC9571290, “Preliminary Structure–Activity Relationship Study of the MMV Pathogen Box Compound MMV675968 (2,4-Diaminoquinazoline) Unveils Novel Inhibitors of Trypanosoma brucei brucei” (Molecules, 2022).

For this data set, the system named is Vero cells. Briefly: cytotoxicity against Vero cells (resazurin viability assay). The conditions noted are these: CC50 (Vero cells)/IC50 (T. b. brucei); for SI Vero Cells: Table 1. As for the experimental part: The resulting pellet was resuspended and counted in a Neubauer chamber in the presence of trypan blue to exclude nonviable cells colored in blue. Once the cell load was estimated, they were either used for the next passage in a new flask or processed for the cytotoxicity assay.
Briefly, Vero cells at a density of 10^4 cells per well were plated in 100 µL of complete DMEM and incubated overnight to allow cell attachment. Plates were then controlled under an inverted fluorescence microscope (Lumascope LS520) to ensure adherence, sterility and cell integrity. Thereafter, culture medium from each well was carefully emptied, and plates were filled with 90 µL of fresh complete medium followed by the addition of 10 µL of serial 5-fold dilutions of compound solutions. […] Fluorescence was then read using a Magelan Infinite M200 fluorescence multiwell plate reader (Tecan) with excitation and emission wavelengths of 530 and 590 nm, respectively. The percentage of cell viability was calculated from readouts, and the median cytotoxic concentration (CC50) for each compound was deduced from concentration–response curves using GraphPad Prism 8.0 software as described above. Selectivity indexes were then determined for each test substance as follows: SI = CC50(Vero cells)/IC50(T. brucei brucei).

Bounds are passed on as bounds.

Molecule `Cc1cnc(N2CCN[C@@H](Cc3ccccc3)C2)nc1Oc1ccc(-n2ccnc2)cc1` [MMV687765] had an SI (Table 3) greater than 44.

The molecule `CCc1ccc(S(=O)(=O)Nc2cc(CN3CCN(CCC(C)C)CC3)ccc2C)cc1` [MMV688124] returned an SI (Table 3) greater than 34.

`O=C(Cn1ccnc1[N+](=O)[O-])NCc1ccccc1` [MMV688773, Benznidazole, reference compound]: the “SI Vero Cells” value was greater than 302.

Consider `COc1ccc(S(=O)(=O)Nc2ccc(CN3CCN(C(=O)c4cccc(C#N)c4)CC3)cc2)cc1` [MMV689029], for which, under “Table 2”, the SI was greater than 76.

With `COc1ccccc1NCc1ccc2nc(N)nc(N)c2c1Cl` [Analog 3], under “Table 4”, the SI came to 6.41.

`COc1ccc(NCc2ccc3nc(N)nc(N)c3c2Cl)cc1OC` [Analog 2] had an SI (Table 4) of 7.68.

With `CC(=O)N1CCc2cc3nc(C)cc(C)c3cc21` [MMV054312], the SI (Table 3) is listed as greater than 77.

For the molecule `Nc1nc2cc(-c3cncc(Oc4ccc(F)cc4)c3)ccc2[nH]1` [MMV687248], under “Table 3”, the SI is given as greater than 199.

For `N=C(N)Nc1ccc(-c2ccc(-c3ccc(N=C(N)N)c(Cl)c3)o2)cc1Cl` [MMV688271], the SI (Table 2) was greater than 93.

Where the note is “Table 2”, `Cc1cccnc1NC(=O)c1cccc(OCc2c(C)noc2C)c1` [MMV688793] yielded an SI greater than 255.

`CCOC(=O)c1c(NC(=O)c2c(F)c(F)c(F)c(F)c2F)sc(C(N)=O)c1C` [MMV153413] returned an SI (Table 3) greater than 57.

For the molecule `CCCCN(CCCC)c1c(C#N)cc(S(=O)(=O)Nc2ccccc2)cc1C#N` [MMV688467], the SI (Table 2) is reported as greater than 32.

With `O=C(NCc1nnc2n1CCCCC2)c1ccc(-c2ccc(F)cc2)o1` [MMV688796], the SI (Table 2) is greater than 3416.

`O=C(Nc1ccc(N2CCNCC2)cc1)c1ccn2ncc(-c3cccc(Cl)c3)c2n1` [MMV022478]: the SI (Table 3) came out at 6.

Under “Table 3”, `COc1ccc(CCN2CCC(NCc3cccc(N(C)C)c3)CC2)cc1` [MMV011511] registered an SI greater than 11.

On to `CCOc1ccc2cc(-c3nn(CC4CCN(C)CC4)c4ncnc(N)c34)ccc2c1` [MMV688854], for which the SI (Table 3) is listed as 1.57.

`O=C(Nc1ccccc1)c1ccc(-c2cc3ccncc3cc2OC2CCNCC2)s1` [MMV024035] yielded an SI (Table 3) of 19.

Molecule `COc1ccc(C(=N)N)cc1-c1cn(-c2ccc(C(=N)N)cc2)nn1` [MMV675998] returned an SI (Table 2) greater than 296.

As to `COc1cc(-c2cc(-c3ccc(S(C)(=O)=O)cc3)cnc2N)ccc1O` [MMV010576], the SI (Table 3) is greater than 66.

As to `COc1ccc(NC(=O)c2ccc3nc(N)nc(N)c3c2)cc1` [Analog 11], the SI (Table 4) stood at 5.60.

The molecule `CNc1nnc(Sc2cnn(-c3ccccc3)c(=O)c2Cl)s1` [MMV688763] returned an SI (Table 3) of 10.

In the case of `CC1CCCCN1C(=O)NCCc1coc(-c2ccc(F)cc2)n1` (centres unmarked) [MMV688797], the SI (Table 2) was greater than 1598.

For `Nc1nccc2ccc(-c3ccc4nccn4c3)cc12` [MMV023233], the SI (Table 3) came to 3.

The molecule `O=C(C(Cc1c[nH]c2ccccc12)NS(=O)(=O)c1ccc(Cl)cc1)N1CCCCC1` (centres unmarked) [MMV085210] had an SI (Table 3) greater than 107.

Consider `CN1CCC(NCc2cccc(-c3ccc(S(=O)(=O)NCc4ccccc4)cc3)c2)CC1` [MMV022029], for which the SI (Table 3) worked out at 8.

As to `Brc1cncc(-c2cc(NCCCn3ccnc3)nc(-c3ccccc3)n2)c1` [MMV661713], the SI (Table 3) was greater than 51.

With `COc1cccc(-c2nc3c(N4CCCC4)cccc3n2CC2CCCN2)n1` (centres unmarked) [MMV687703], the SI (Table 3) is greater than 56.

`Cc1nc(-c2ccccn2)nc(N2CCC(Cc3ccccc3)C2)c1Cl` (centres unmarked) [MMV659004] had an SI (Table 2) greater than 50.

Turning to `CC1CS(=O)(=O)CCN1/N=C/c1ccc([N+](=O)[O-])o1` (centres unmarked) [MMV001499, Nifurtimox, reference compound], the “SI Vero Cells” value is greater than 539.

`CC(=O)Nc1ccc(-c2noc(CC3CCCN(Cc4cccc(F)c4C)C3)n2)cc1` (centres unmarked) [MMV689061]: the SI (Table 2) is given as greater than 54.

For the molecule `CCN(CC)CCCCCCNc1cc(OC)cc2c(C)ccnc12` [MMV000063, Sitamaquine, reference compound], the “SI Vero Cells” value is greater than 66.

`COc1ccc(NCc2ccc3nc(N)nc(N)c3c2)cc1` [Analog 8] displayed an SI (Table 4) of 123.44.
